In patent US20160264649A1:
Numbering of substitutions follows the chain as printed.

B1: 5136_H01 (PGT-131) (antibody, V domains shown)
VH: QVQLQESGPGLVKPSETLSLTCTVSGDSINTGHHYWGWVRQVPGKGPEWIAHIHYNTAVLHNPALKSRVTISIFTLKNLITLSLSNVTAADTAVYFCVRSGGDILYYIEWQKPHWFYPWGPGILVTVSS
VL: QSALTQPPSASGSLGQSLTISCSGTGSDIGSWNFVSWYQQFPGRAPNLIIFEVNRRRSGVPDRFSGSKSGNTASLTVSGLRSEDEAEYFCSSLSGRWDIVFGGGTKVTVL
B2: 5147_N06 (PGT-130) (antibody, V domains shown)
VH: QVQLQESGPGLVKPAETLSLTCSVSGESINTGHYYWGWVRQVPGKGLEWIGHIHYTTAVLHNPSLKSRLTIKIYTLRNQITLRLSNVTAADTAVYHCVRSGGDILYYYEWQKPHWFSPWGPGIHVTVSS
VL: QSALTQPPSASGSLGQSVTISCNGTSSDIGGWNFVSWYQQFPGRAPRLIIFEVNKRPSGVPGRFSGSKSGNSASLTVSGLQSDDEGQYFCSSLFGRWDVVFGGGTKLTVL
B3: 5343_B08 (PGT-135) (antibody, V domains shown)
VH: QLQMQESGPGLVKPSETLSLSCTVSGDSIRGGEWGDKDYHWGWVRHSAGKGLEWIGSIHWRGTTHYKESLRRRVSMSIDTSRNWFSLRLASVTAADTAVYFCARHRHHDVFMLVPIAGWFDVWGPGVQVTVSS
VL: EIVMTQSPDTLSVSPGETVTLSCRASQNINKNLAWYQYKPGQSPRLVIFETYSKIAAFPARFVASGSGTEFTLTINNMQSEDVAVYYCQQYEEWPRTFGQGTKVDIK
B4: 5145_B14 (PGT-127) (antibody, V domains shown)
VH: QPQLQESGPGLVEASETLSLTCTVSGDSTGRCNYFWGWVRQPPGKGLEWIGSLSHCRSYYNTDWTYHNPSLKSRLTISLDTPKNQVFLRLTSVTAADTATYYCARFGGEVLVYRDWPKPAWVDLWGRGTLVVTVSS
VL: QSALTQPPSASGSPGQSITISCTGTSNNFVSWYQQYPGKAPKLVIYEVNKRPSGVPDRFSGSKSGSTASLTVSGLQADDEGVYYCSSLVGNWDVIFGGGTKLTVL
B5: 5114_A19 (PGT-128) (antibody, V domains shown)
VH: QPQLQESGPTLVEASETLSLTCAVSGDSTAACNSFWGWVRQPPGKGLEWVGSLSHCASYWNRGWTYHNPSLKSRLTLALDTPKNLVFLKLNSVTAADTATYYCARFGGEVLRYTDWPKPAWVDLWGRGTLVTVSS
VL: B4 VL with Y36H, P37A, E47D, S66N, A77T, G81A, S86G

Molecular target: HIV-1 Env of the clade AG viruses (n=10) of the cross-clade 162-pseudovirus panel
Assay: cell-based or functional assay

Binder | Median IC50 (µg/ml) against all viruses | Median IC50 (µg/ml) against viruses neutralized with an IC50 <50 µg/ml | Percent viruses neutralized with an IC50 <50 µg/ml
B1 | 50 µg/mL | 0.18 µg/mL | 40%
B2 | 21.8 µg/mL | 0.04 µg/mL | 50%
B3 | 50 µg/mL | 27.4 µg/mL | 20%
B4 | 50 µg/mL | 0.04 µg/mL | 40%
B5 | 1.62 µg/mL | 0.67 µg/mL | 90%

Molecular target: HIV-1 Env of the clade D viruses (n=25) of the cross-clade 162-pseudovirus panel
Assay: cell-based or functional assay

Binder | Median IC50 (µg/ml) against all viruses | Median IC50 (µg/ml) against viruses neutralized with an IC50 <50 µg/ml | Percent viruses neutralized with an IC50 <50 µg/ml
B1 | 50 µg/mL | 0.85 µg/mL | 36%
B2 | 50 µg/mL | 0.65 µg/mL | 44%
B3 | 50 µg/mL | 1.09 µg/mL | 24%
B4 | 50 µg/mL | 0.49 µg/mL | 48%
B5 | 0.14 µg/mL | – | 60%

Molecular target: HIV-1 Env of the 162-pseudovirus panel representing all major circulating HIV-1 subtypes (HIV-1)
Assay: cell-based or functional assay

Binder | Median IC50 (µg/ml) against viruses neutralized with an IC50 <50 µg/ml | Percent viruses neutralized, IC50 < 0.1 µg/ml | Percent viruses neutralized, IC50 < 1 µg/ml | Percent viruses neutralized, IC50 < 50 µg/ml
B1 | 0.52 µg/mL | 13% | 23% | 40%
B2 | 0.16 µg/mL | 23% | 35% | 52%
B3 | 0.17 µg/mL | 13% | 23% | 33%
B4 | 0.08 µg/mL | 27% | 37% | 50%
B5 | 0.02 µg/mL | 50% | 60% | 72%

Molecular target: HIV-1 Env of all viruses (n=162) of the cross-clade 162-pseudovirus panel
Assay: cell-based or functional assay

Binder | Median IC50 (µg/ml) against all viruses | Median IC50 (µg/ml) against viruses neutralized with an IC50 <50 µg/ml | Percent viruses neutralized with an IC50 <50 µg/ml
B1 | 50 µg/mL | 0.52 µg/mL | 40%
B2 | 22.1 µg/mL | – | 52%
B3 | 50 µg/mL | 0.17 µg/mL | 33%
B4 | 42.8 µg/mL | 0.08 µg/mL | 50%
B5 | 0.1 µg/mL | 0.02 µg/mL | 72%

Molecular target: HIV-1 Env of the clade G viruses (n=15) of the cross-clade 162-pseudovirus panel
Assay: cell-based or functional assay

Binder | Median IC50 (µg/ml) against all viruses | Median IC50 (µg/ml) against viruses neutralized with an IC50 <50 µg/ml | Percent viruses neutralized with an IC50 <50 µg/ml
B1 | 50 µg/mL | 3.54 µg/mL | 40%
B2 | 50 µg/mL | 4.14 µg/mL | 47%
B3 | 50 µg/mL | 0.14 µg/mL | 40%
B4 | 50 µg/mL | 0.22 µg/mL | 40%
B5 | – | 0.04 µg/mL | 67%

Molecular target: HIV-1 Env of the clade C viruses (n=27) of the cross-clade 162-pseudovirus panel
Assay: cell-based or functional assay

Binder | Median IC50 (µg/ml) against all viruses | Median IC50 (µg/ml) against viruses neutralized with an IC50 <50 µg/ml | Percent viruses neutralized with an IC50 <50 µg/ml
B1 | 50 µg/mL | 0.78 µg/mL | 41%
B2 | 50 µg/mL | 0.15 µg/mL | 48%
B3 | 50 µg/mL | 0.05 µg/mL | 37%
B4 | 19.2 µg/mL | 0.55 µg/mL | 52%
B5 | – | 0.04 µg/mL | 78%

Molecular target: HIV-1 Env of the clade F viruses (n=15) of the cross-clade 162-pseudovirus panel
Assay: cell-based or functional assay

Binder | Median IC50 (µg/ml) against all viruses | Median IC50 (µg/ml) against viruses neutralized with an IC50 <50 µg/ml | Percent viruses neutralized with an IC50 <50 µg/ml
B1 | 50 µg/mL | 0.56 µg/mL | 13%
B2 | 50 µg/mL | 0.07 µg/mL | 33%
B3 | 7.79 µg/mL | 0.21 µg/mL | 60%
B4 | 50 µg/mL | 0.65 µg/mL | 27%
B5 | 1.21 µg/mL | 0.52 µg/mL | 80%

Molecular target: HIV-1 Env of the clade AE viruses (n=10) of the cross-clade 162-pseudovirus panel
Assay: cell-based or functional assay

Binder | Median IC50 (µg/ml) against all viruses | Median IC50 (µg/ml) against viruses neutralized with an IC50 <50 µg/ml | Percent viruses neutralized with an IC50 <50 µg/ml
B1 | 2.6 µg/mL | 0.08 µg/mL | 60%
B2 | 0.58 µg/mL | 0.17 µg/mL | 80%
B3 | 50 µg/mL | – | 0%
B4 | 50 µg/mL | – | 0%
B5 | 0.31 µg/mL | 0.06 µg/mL | 60%

Molecular target: HIV-1 Env of the clade A viruses (n=26) of the cross-clade 162-pseudovirus panel
Assay: cell-based or functional assay

Binder | Median IC50 (µg/ml) against viruses neutralized with an IC50 <50 µg/ml | Percent viruses neutralized with an IC50 <50 µg/ml | Median IC50 (µg/ml) against all viruses
B1 | 0.09 µg/mL | 38% | –
B2 | 0.09 µg/mL | 50% | 41.4 µg/mL
B3 | 0.64 µg/mL | 19% | 50 µg/mL
B4 | 0.02 µg/mL | 50% | 21.7 µg/mL
B5 | 0.01 µg/mL | 50% | 0.35 µg/mL

Molecular target: HIV-1 Env of the clade B viruses (n=31) of the cross-clade 162-pseudovirus panel
Assay: cell-based or functional assay

Binder | Median IC50 (µg/ml) against all viruses | Median IC50 (µg/ml) against viruses neutralized with an IC50 <50 µg/ml | Percent viruses neutralized with an IC50 <50 µg/ml
B1 | 50 µg/mL | 0.07 µg/mL | 45%
B2 | 5.17 µg/mL | 0.09 µg/mL | 65%
B3 | 50 µg/mL | 0.15 µg/mL | 39%
B4 | 0.12 µg/mL | 0.06 µg/mL | 81%
B5 | – | 0.01 µg/mL | 81%
